A mixed list of measured activities; the numbers were collected in NIAID ChemDB.

Shared fields: growth or infection tests; species: HIV-1

Blank or dashed fields: not listed here. ECn is the concentration giving n% inhibition of infection, replication or growth. Neighbouring rows are from separate reports. a–b is a range or a potency band.

SMILES,conditions,method,endpoint,mutations,strain,cell line,result
C=CCOC(=O)OC[C@H]1O[C@@H](n2cc(C)c(=O)n(C)c2=O)[C@H](O[Si](C)(C)C(C)(C)C)C12OS(=O)(=O)C=C2N,,,EC50,,,MT-4,>10 µM
O=C1c2ccccc2[C@]2(O)C3C4C[C@H]5CC(C[C@H]3C5)C4N12,,syncytia,EC50,,IIIB,CEM,>20 µg/mL
Nc1nc(N2CCCCC2)c2ncn(CCOCP(=O)(O)O)c2n1,,cytopathic effect / MTT,EC50,,IIIB,CEM,>4 µg/mL
CCOC(=O)c1cccn1S(=O)(=O)c1ccc([N+](=O)[O-])cc1,,cytopathic effect / XTT,EC50,,IIIB,MT-4,>200 µM
CCCCCCCC(=O)Nc1nc(N)nc2c1ncn2[C@H]1CO[C@@H](COP(=O)(N[C@@H](C)C(=O)OCC)Oc2ccccc2)O1,,RT activity,EC50,,LAV-1,PBMC,0.42 µM
CC(CS)C(=O)N1CCC[C@@H]1C(=O)NCC(=O)N1CCN(c2nc3ccccc3s2)CC1,,MTT,EC50,,IIIB,MT-4,>1.21 µg/mL
CCOC(=O)c1cccn1S(=O)(=O)c1ccc(NC(N)=O)cc1,,cytopathic effect / XTT,EC50,,IIIB,MT-4,>128.8 µM
Nc1nc(NC2CC2)c2ncn(CCOCP(=O)(O)O)c2n1,,cytopathic effect / MTT,EC50,,IIIB,MT-4,0.11 µg/mL
CCOC(=O)[C@H](C)NP(=O)(OC[C@@H]1OC[C@H](n2cnc3c(NC(C)=O)nc(N)nc32)O1)Oc1ccccc1,,RT activity,EC50,,LAV-1,PBMC,19 µM
CCOC(=O)N1CCC(=C(c2cc(Cl)c(OC)c(C(=O)O)c2)c2cc(Cl)c(OC)c(C(=O)O)c2)CC1,,,EC50,,RF,CEM + CEM-SS,64.9 µM
CCN(C)c1ncnc2c1ncn2C[C@@H](C)OCP(=O)(O)O,,cytopathic effect / MTT,EC50,,IIIB,CEM,5.5 ± 2.1 µg/mL
CC(C)C1=C2[C@H]3CC[C@@H]4[C@@]5(C)CC[C@H](OC(=O)CC(C)(C)C(=O)O)C(C)(C)[C@@H]5CC[C@@]4(C)[C@]3(C)CC[C@@]2([C@@H](O)CN(CCN(C)C)Cc2ccc(Cl)cc2)CC1=O,,syncytia / visual reading / single cycle,EC50,,NL4-3,CEM-SS + MAGIC-5A,0.0000028 µM
C[C@H](CSCCN1C(=O)c2ccccc2C1=O)C(=O)N1CCC[C@@H]1C(=O)O,,MTT,EC50,,IIIB,MT-4,>22.43 µg/mL
CCCCCC(=O)Nc1ccc(Cl)cc1S(=O)(=O)n1cccc1C(=O)OCC,,cytopathic effect / XTT,EC50,,IIIB,MT-4,4.4 µM
CN(C)CC(=O)Nc1ccc(-c2nc(=O)n(C)c3c2oc2ccccc23)cc1,,luciferase,EC50,,,C8166,1.6 µM
CC1=C(/C=C/C=C/C=C/C=C/C(=O)Nc2ccn([C@H]3CS[C@@H](CO)O3)c(=O)n2)C(C)(C)CCC1,,syncytia,EC50,,BRU,MT-4,<100 µM
C[C@H](CC1CNC2C1CC(N)CN2N)OCP(=O)(O)O,,cytopathic effect / MTT,EC50,,IIIB,MT-4,>100 µg/mL
Cc1nn2cc1CCCCCC1(C)CCN(CC1)c1c([C@H](OC(C)(C)C)C(=O)O)c(C)nc3cc(nn13)-c1cccc-2c1,,luciferase,EC50,,,MT-2,0.007 µM
Cc1cn([C@@H]2O[C@H](CN3CCN(Cc4ccccc4)CC3)C3(OS(=O)(=O)C=C3N)[C@H]2O[Si](C)(C)C(C)(C)C)c(=O)n(C)c1=O,,,EC50,,,CEM + CEM/0,>10 µM
CCCCCCCCCCCCCC(=O)Nc1nc(N)nc2c1ncn2[C@H]1CO[C@@H](COP(=O)(N[C@@H](C)C(=O)OCC)Oc2ccccc2)O1,,RT activity,EC50,,LAV-1,PBMC,0.041 µM
O=C(c1ccccc1)N(CCc1ccccc1)C[C@H](O)CN(CC1CCCC1)S(=O)(=O)c1nc2ccccc2[nH]1,,p24,EC50,,IIIB,CEM,<1 µM
CCCCCCCCCCCC(=O)Nc1nc(N)nc2c1ncn2[C@H]1CO[C@@H](COP(=O)(N[C@@H](C)C(=O)OCC)Oc2ccccc2)O1,,RT activity,EC50,,LAV-1,PBMC,0.98 µM
CN(C)C(=O)C(=O)NC12CCC(CC1)Cn1c2nc(C(=O)NCc2ccc(N(C)C)cc2)c(O)c1=O,pseudotyped,luciferase,EC50,(delta)nef,NL4-3,MT-2,<0.01 µM
COc1ccc(S(=O)(=O)N(CC(C)C)C[C@@H](O)CCN(CC2CCCC2)S(=O)(=O)C2CCCS(=O)(=O)C2)cc1,,p24,EC50,,IIIB,CEM,<1 µM
Cc1cc(F)cnc1CNC(=O)c1nc2n(c(=O)c1O)CC1CCC2(NC(=O)C(=O)N(C)C)CC1,pseudotyped,luciferase,EC50,(delta)nef,NL4-3,MT-2,0.01–0.1 µM
Cc1cn([C@H]2C[C@H](N=[N+]=[N-])[C@@H](CO)O2)c(=O)[nH]c1=O,,fluorescence,EC50,,IIIB,H9,0.01903 µM
CCOC(=O)N1CCC(=C(c2cc(C)c(OC)c(C(=O)OC)c2)c2cc(C)c(OC)c(C(=O)OC)c2)CC1,,,EC50,,RF,CEM + CEM-SS,1.16 µM
CCc1nc([N+](=O)[O-])c(N2CCN(C(=O)CSC[C@@H](C)C(=O)N3CCC[C@@H]3C(=O)O)CC2)n1Cc1ccccc1,,MTT,EC50,,IIIB,MT-4,>2.23 µg/mL
CCCCC(=O)Nc1ccc(Cl)cc1S(=O)(=O)n1cccc1C(=O)OCC,,cytopathic effect / XTT,EC50,,IIIB,MT-4,1.2 µM
CC(C)(C)OC(=O)NCCNC(=O)c1cn([C@H]2CS[C@@H](COC(=O)c3ccccc3)O2)c(=O)[nH]c1=O,,syncytia,EC50,,,MT-4,>200 µM
CC(C)CN(C[C@@H](O)CN(CCc1ccccc1)C(=O)O[C@H]1CCOC1)S(=O)(=O)c1cccc(N)c1,,p24,EC50,,IIIB,CEM,<0.1 µM
CC1=C(/C=C/C=C/C=C/C=C/C(=O)OC[C@H]2O[C@@H](n3ccc(N)nc3=O)CS2)C(C)(C)CCC1,,syncytia,EC50,,BRU,MT-4,~1 µM
CN(C)c1nc(N)nc2c1ncn2CCOCP(=O)(O)O,,cytopathic effect / MTT,EC50,,IIIB,CEM,0.7 µg/mL
Cc1nc(C(CN)NC(=O)c2ccc(-c3ccc4c(c3)OCO4)[nH]2)sc1CO,,p24 / ELISA,EC50,,BaL,PBMC,2.8 µM
C[C@H](Cn1cnc2c(N(C)C)ncnc21)OCP(=O)(O)O,,cytopathic effect / MTT,EC50,,IIIB,CEM,0.7 ± 0.1 µg/mL
CCOC(=O)c1cccn1S(=O)(=O)c1cccc(NC=O)c1,,cytopathic effect / XTT,EC50,,IIIB,MT-4,200 µM
O=C1c2ccccc2C(=O)N1CCC12CC3CC(CC(C3)C1)C2,,syncytia,EC50,,IIIB,CEM,>4 µg/mL
COc1ccc(S(=O)(=O)N(CC(C)C)CC(O)CNc2ccccc2C(=O)NC(C)(C)C)cc1,,p24,EC50,,IIIB,CEM,<1 µM
O=c1[nH]c(=O)n([C@H]2CS[C@@H](CO)O2)cc1I,,syncytia,EC50,,,MT-4,>100 µM
O=S1(=O)C[C@@H](O)[C@@H](O)CS1,,cytopathic effect / XTT,EC50,,RF,CEM + CEM-SS,16.2 µM
CCOC(=O)N1CCC(C(c2cc(C)c(OC)c(C(=O)OC)c2)c2cc(C)c(OC)c(C(=O)OC)c2)CC1,,,EC50,,RF,CEM + CEM-SS,5.23 µM
O=c1[nH]c(=O)n([C@@H]2CS[C@@H](CO)O2)cc1I,,syncytia,EC50,,,MT-4,>100 µM
O=C1CCCC(C23CC4CC(C2)CC(N2C(=O)c5ccccc5C2=O)(C4)C3)C1,,syncytia,EC50,,IIIB,CEM,>4 µg/mL
CCOC(=O)c1cccn1S(=O)(=O)c1cc(Cl)ccc1NS(=O)(=O)c1ccc(Cl)cc1,,cytopathic effect / XTT,EC50,,IIIB,MT-4,>17 µM
Nc1nc(N2CCCC2)c2ncn(CCOCP(=O)(O)O)c2n1,,cytopathic effect / MTT,EC50,,IIIB,MT-4,1.88 µg/mL
C=CCOC[C@H]1O[C@@H](n2cc(C)c(=O)n(C)c2=O)[C@H](O[Si](C)(C)C(C)(C)C)C12OS(=O)(=O)C=C2N,,,EC50,,,MT-4,11.1 ± 10 µM
CN(C)C(=O)C(=O)NC12CCC(CC1)Cn1c2nc(C(=O)NCc2ccccn2)c(O)c1=O,pseudotyped,luciferase,EC50,(delta)nef,NL4-3,MT-2,<0.01 µM
C=CCNc1nc(N)nc2c1ncn2CCOCP(=O)(O)O,,cytopathic effect / MTT,EC50,,IIIB,CEM,>0.0032 µg/mL
Cc1cc(/C=C/C#N)cc(C)c1Nc1ccnc(Nc2ccc(C#N)cc2)n1,,luciferase,EC50,Y181C/K103N,NL4-3,TZM-bl,0.0025 µM
CCCC(=O)Nc1nc(N)nc2c1ncn2[C@H]1CO[C@@H](COP(=O)(N[C@@H](C)C(=O)OCC)Oc2ccccc2)O1,,RT activity,EC50,,LAV-1,PBMC,1.2 µM
Nc1ccn([C@@H]2CS[C@H](CO)O2)c(=O)n1,,syncytia,EC50,,BRU,MT-4,<0.1 µM
O=C1c2cccc([N+](=O)[O-])c2C(=O)N1C12CC3CC(CC(C3)C1)C2,,syncytia,EC50,,IIIB,CEM,>4 µg/mL
CCOC(=O)c1cccn1S(=O)(=O)c1cc(Cl)ccc1NC(=O)CBr,,cytopathic effect / XTT,EC50,,IIIB,MT-4,>1.7 µM
COc1ccc(S(=O)(=O)N(CC(C)C)C[C@@H](O)CCN(CC2CCCC2)S(=O)(=O)C(C)(C)C)cc1,,p24,EC90,,IIIB,CEM,1 µM
COC(=O)CC[C@@H]1C[C@H]2CCC[C@](NC(=O)c3ccccc3C(=O)N[C@@]34CCC[C@@H](C[C@H](CCC(=O)OC)C3)C4)(C2)C1,,syncytia,EC50,,IIIB,CEM,>20 µg/mL
C[C@H](CSCC(N)=O)C(=O)N1CCC[C@@H]1C(=O)O,,MTT,EC50,,IIIB,MT-4,>3.12 µg/mL
CC(C)(C)OC(=O)NCCNC(=O)c1cn([C@@H]2CS[C@@H](COC(=O)c3ccccc3)O2)c(=O)[nH]c1=O,,syncytia,EC50,,,MT-4,>200 µM
CCOC(=O)c1cccn1S(=O)(=O)c1cc(Cl)ccc1NC(C)=O,,cytopathic effect / XTT,EC50,,IIIB,MT-4,1 µM
CC(C)c1ncc(CS(=O)(=O)N(CC2CCCC2)C[C@@H](O)CN(CCc2ccccc2)C(=O)c2ccccc2)s1,,p24,EC50,,IIIB,CEM,<1 µM
N#CCCC12CC3CC(C1)CC(N1C(=O)c4ccccc4C1=O)(C3)C2,,syncytia,EC50,,IIIB,CEM,>4 µg/mL

Repeating the first 7 entries:

SMILES,conditions,method,endpoint,mutations,strain,cell line,result
C=CCOC(=O)OC[C@H]1O[C@@H](n2cc(C)c(=O)n(C)c2=O)[C@H](O[Si](C)(C)C(C)(C)C)C12OS(=O)(=O)C=C2N,,,EC50,,,MT-4,>10 µM
O=C1c2ccccc2[C@]2(O)C3C4C[C@H]5CC(C[C@H]3C5)C4N12,,syncytia,EC50,,IIIB,CEM,>20 µg/mL
Nc1nc(N2CCCCC2)c2ncn(CCOCP(=O)(O)O)c2n1,,cytopathic effect / MTT,EC50,,IIIB,CEM,>4 µg/mL
CCOC(=O)c1cccn1S(=O)(=O)c1ccc([N+](=O)[O-])cc1,,cytopathic effect / XTT,EC50,,IIIB,MT-4,>200 µM
CCCCCCCC(=O)Nc1nc(N)nc2c1ncn2[C@H]1CO[C@@H](COP(=O)(N[C@@H](C)C(=O)OCC)Oc2ccccc2)O1,,RT activity,EC50,,LAV-1,PBMC,0.42 µM
CC(CS)C(=O)N1CCC[C@@H]1C(=O)NCC(=O)N1CCN(c2nc3ccccc3s2)CC1,,MTT,EC50,,IIIB,MT-4,>1.21 µg/mL
CCOC(=O)c1cccn1S(=O)(=O)c1ccc(NC(N)=O)cc1,,cytopathic effect / XTT,EC50,,IIIB,MT-4,>128.8 µM